Measured values from several laboratories, pooled; numbers as filed in NIAID ChemDB.

Common to all: host cell toxicity; cells: HEL; endpoint: CC50

Conditions beyond the fields shown may differ between rows. CCn: concentration that lowers growth or viability of the cells by n%. An empty or dashed field is not shown.

smiles | read by | result
C[C@H](NC(=O)N1C(=O)C[C@]1(Cc1ccccc1)C(=O)O)c1ccccc1 |  | >200 µM
Nc1nc2c(ncn2[C@@H]2C[C@H](CO)[C@H]2CO)c(=O)[nH]1 |  | 19.8 µg/mL
O=c1[nH]c(=O)n([C@H]2C[C@H](O)[C@@H](CO)O2)cc1F |  | 0.017 µM
CCC/C=C\c1nc2c(N)ncnc2n1[C@H]1C[C@H](O)[C@@H](CO)O1 |  | 40 µg/mL
CCCCCCCOc1ccc(-c2cc3cn([C@H]4C[C@H](O)[C@@H](CO)O4)c(=O)nc3o2)cc1 |  | >200 µM
Nc1nc2c(ncn2COC(CO)CO)c(=O)[nH]1 |  | 133.5 µg/mL
COc1cc(C=NNC(=O)COc2cccc3ccccc23)cc(OC)c1O |  | 52.8 µg/mL
CCCCCCc1cc2cn([C@H]3C[C@H](O)[C@@H](CO)O3)c(=O)nc2[nH]1 |  | >50 µM
O=c1nc2oc(-c3ccccc3)cc2cn1[C@H]1C[C@H](O)[C@@H](CO)O1 |  | >200 µM
O=S(=O)(Cc1ccccc1Cl)c1cccc[n+]1[O-] |  | 19 µg/mL
CCCCCCc1ccc(-c2cc3cn(C4CC[C@@H](CO)O4)c(=O)nc3o2)cc1 |  | >200 µM
C#Cc1cn(COCCO)c(=O)[nH]c1=O |  | >200 µM
O=c1[nH]c(=O)n([C@H]2C[C@H](O)[C@@H](CO)O2)cc1-c1ccc(Br)o1 |  | 125 µg/mL
CCCCCCc1cc2cnc(OC3CCCC3)nc2o1 |  | >200 µM
CC(C)Nc1ncnc2c1ncn2C1C[C@H](CO)[C@@H](CO)C1 |  | >200 µg/mL
Nc1ncnc2c1ncn2[C@@H]1C=C(CF)[C@H](O)[C@H]1O |  | 200 µg/mL
Nc1ncnc2c1ncn2[C@@H]1O[C@H](CO)[C@H]1CO |  | 118 µg/mL
CN1c2ccccc2C(C)(C)C12C=Cc1cc([N+](=O)[O-])ccc1O2 |  | 16.2 µM
COc1ccc(C=NNC(=O)COc2cccc3ccccc23)cc1 |  | 100 µg/mL
CCOC(Cn1c(N)nc2c(ncn2COCCO)c1=O)OCC |  | >90 µg/mL
C[C@@H](NC(=O)C1(Cc2ccccc2)CCN1C(=O)OCc1ccccc1)C(=O)O |  | 50 µM
C/C(=C\CCC1(C)C=Cc2cc(O)cc(C)c2O1)CC/C=C(\C)CC[C@@H](C)C(C)(C)O |  | 22 µM
O=C(CC1CCCCC1)N(O)c1ccccc1 |  | >500 µg/mL
O=[N+]([O-])c1ccc[n+]([O-])c1SCc1ccccc1 |  | 31 µg/mL
O=c1[nH]c(=O)n([C@H]2C[C@H](O)[C@@H](CO)O2)cc1-c1ccc(Cl)o1 |  | 105 µg/mL
COc1ccc(/C=C(/C#N)Sc2cccc[n+]2[O-])cc1 |  | 35 µg/mL
Nc1nc2c(ncn2COC(CO)CO)c(=O)[nH]1 |  | 390 µM
O=C1NS(=O)(=O)N(COCc2ccccc2)c2ccccc21 |  | >50 µg/mL
O=C(COc1cccc2ccccc12)NN=Cc1ccc(Br)cc1 |  | 100 µg/mL
Cc1ccc(C)c(C(C)Sc2cccc[n+]2[O-])c1 |  | >20 µg/mL
O=c1[nH]c(=O)n([C@H]2C[C@H](O)[C@@H](CO)O2)cc1/C=C/Br |  | 489 µM
Nc1nc(N)c2ncn(C[C@H]3CCC[C@H]3CO)c2n1 |  | >50 µg/mL
CC[C@H](O)C1=C[C@@H](n2cnc3c(N)ncnc32)[C@H](O)[C@@H]1O |  | >50 µg/mL
CCCCCCCCc1cc2cn([C@H]3C[C@H](O)[C@@H](CO)O3)c(=O)nc2o1 |  | >50 µM
O=C(O)P(=O)(O)O |  | 504 µM
Nc1ncnc2c1ncn2[C@@H]1C=C(CCl)[C@@H](O)[C@H]1O |  | 9 µg/mL
C[C@@H](NC(=O)C1(Cc2ccccc2)CCN1C(=O)OCc1ccccc1)C(=O)OC(C)(C)C |  | 37 µM
CCOc1ccccc1CS(=O)(=O)c1cccc[n+]1[O-] |  | 37 µg/mL
O=c1nc2oc(-c3ccccc3)cc2cn1C1CC[C@@H](CO)O1 |  | >200 µM
Cc1c(O)c(=O)ccn1[C@H]1CS[C@@H](CO)O1 |  | >100 µM
CC(=O)OCCOCN1c2ccccc2C(=O)NS1(=O)=O |  | >200 µg/mL
CCCCCCCCCCCc1cc2cn(COCCO)c(=O)nc2[nH]1 |  | 41 µM
Nc1ncc2ncn(C[C@H]3CCC[C@H]3CO)c2n1 |  | 20 µg/mL
CCOC(Cn1c(N)nc2c(ncn2COC(CO)CO)c1=O)OCC |  | >90 µg/mL
Cc1ccc[n+]([O-])c1S(=O)(=O)Cc1ccccc1 |  | 28 µg/mL
O=c1ccn(C/C=C/c2ccccc2)c(=O)n1Cc1cccc2ccccc12 | MTT | >100 µM
O=c1[nH]c(=O)n([C@@H]2C[C@H](CO)C[C@H]2CO)cc1I |  | >200 µg/mL
Nc1nc2c(ncn2[C@@H]2C[C@H](CO)[C@H]2CO)c(=O)[nH]1 |  | 10 µg/mL
CCCCCOc1ccc(-c2cc3cn([C@H]4C[C@H](O)[C@@H](CO)O4)c(=O)nc3o2)cc1 |  | >200 µM
N#Cc1ccccc1CS(=O)(=O)c1cccc[n+]1[O-] |  | 15 µg/mL
O=C(COc1cccc2ccccc12)NN=Cc1ccccc1[N+](=O)[O-] |  | 100 µg/mL
O=[N+]([O-])c1ccc(SCc2ccccc2)nc1 |  | >20 µg/mL
CCCCCCCCC#Cc1cc2cn(COCCO)c(=O)nc2o1 |  | 42 µM
CCCCCCCOCCc1cc2cn([C@H]3C[C@H](O)[C@@H](CO)O3)c(=O)nc2o1 |  | >200 µM
CC(C)(C)OC(=O)C1(Cc2ccccc2)CC(=O)N1C(=O)OCc1ccccc1 |  | 36 µM
Cc1ccc(CS(=O)c2cccc[n+]2[O-])cc1C |  | 14 µg/mL
O=C(OCCOCN1c2ccccc2C(=O)N(Cc2ccccc2)S1(=O)=O)c1ccccc1 |  | 17 µg/mL
COc1ccc(-c2cc3cn([C@H]4C[C@H](O)[C@@H](CO)O4)c(=O)nc3o2)cc1 |  | >200 µM
Nc1nc2c(ncn2C[C@]2(CO)C[C@H]2CO)c(=O)[nH]1 |  | 37 µg/mL
Cc1ccc(C)c(C(CCCCCCBr)S(=O)(=O)c2cccc[n+]2[O-])c1 |  | 7.4 µg/mL
Nc1nc2c(ncn2COC(CO)CO)c(=O)[nH]1 |  | 461 µM
CCCCCCCC(c1cc(C)ccc1C)S(=O)(=O)c1cccc[n+]1[O-] |  | >50 µg/mL
Nc1ncnc2c1ncn2C[C@@H](CO)OCP(=O)(O)O |  | 57 µM
C#Cc1nc2c(N)ncnc2n1[C@H]1C[C@H](O)[C@@H](CO)O1 |  | 2 µg/mL
CC(c1ccc(Cl)cc1)S(=O)c1cccc[n+]1[O-] |  | 0.11 µg/mL
COc1ccc2c(c1)C=CC1(O2)N(C)c2ccccc2C1(C)C |  | <6.5 µM
Cc1ccc(-c2cc3cn([C@H]4C[C@H](O)[C@@H](CO)O4)c(=O)nc3o2)cc1 |  | >200 µM
C[C@H](NC(=O)N1C(=O)C[C@]1(Cc1ccccc1)C(=O)OC(C)(C)C)c1ccccc1 |  | 164 µM
Cc1cc(Br)cc(Cn2c(=O)ccn(C/C=C/c3ccccc3)c2=O)c1 | MTT | >100 µM
CN1c2ccc([N+](=O)[O-])cc2C(C)(C)C12C=Cc1ccccc1O2 |  | 141.5 µM
O=c1[nH]c(=O)n([C@H]2C[C@H](O)[C@@H](CO)O2)cc1-c1cccs1 |  | >200 µg/mL
CCCCCCCc1cc2cn(CCC(C)C)c(=O)nc2o1 |  | >200 µM
Nc1nc2c(ncn2C[C@H]2CCC[C@H]2CO)c(=O)[nH]1 |  | >50 µg/mL
OC[C@H]1CC(n2cnc3c(NC4CC4)ncnc32)C[C@@H]1CO |  | >200 µg/mL
CCCc1ccc(-c2cc3cn(C4CC[C@@H](CO)O4)c(=O)nc3o2)cc1 |  | >200 µM
COc1cccnc1SCc1cc(C)ccc1C |  | >20 µg/mL
O=c1[nH]c(=O)n([C@H]2C[C@H](O)[C@@H](CO)O2)cc1-c1ccco1 |  | 100 µg/mL
C[C@@H](NC(=O)N1C(=O)C[C@@]1(Cc1ccccc1)C(=O)OC(C)(C)C)c1ccccc1 |  | 70 µM
CCOC(Cn1c(N)nc2c(ncn2[C@@H]2O[C@H](CO)[C@@H](O)[C@H]2O)c1=O)OCC |  | >90 µg/mL
CCC(c1cc(C)ccc1C)S(=O)(=O)c1c(C)ccc[n+]1[O-] |  | 20 µg/mL
CC(C)CS[C@@H]1C[C@H](n2cnc3c(N)ncnc32)[C@@H](O)[C@H]1O |  | >200 µg/mL
CN1c2ccc([N+](=O)[O-])cc2C(C)(C)C12C=Cc1cc([N+](=O)[O-])ccc1O2 |  | 18.5 µM
CCCc1nc2c(N)ncnc2n1[C@H]1C[C@H](O)[C@@H](CO)O1 |  | 170 µg/mL
CCCCCCCCc1ccc(-c2cc3cn([C@H]4C[C@H](O)[C@@H](CO)O4)c(=O)nc3o2)cc1 |  | >200 µM
C[C@H](NC(=O)[C@H](Cc1ccccc1)NC(=O)[C@H](C)NC(=O)[C@]1(Cc2ccccc2)CCN1C(=O)OCc1ccccc1)NC(C)(C)C |  | >100 µM
Nc1nc2c(ncn2COC(CO)CO)c(=O)[nH]1 | MTT | 132 µM
Cc1c(O)c(=O)ccn1[C@@H]1CC[C@@H](CO)O1 |  | >900 µM
O=c1nc2oc(CCCCCCCCCI)cc2cn1[C@H]1C[C@H](O)[C@@H](CO)O1 |  | 200 µM
Cc1ccc(C)c(C(C)S(=O)(=O)c2cc(C)cc(C)[n+]2[O-])c1 |  | >100 µg/mL
Nc1ncnc2c1ncn2C[C@H]1COP(=O)(O)CO1 |  | 115 µM
CN(C)c1ccnc(SCc2ccc(Cl)cc2)c1C#N |  | >100 µg/mL
CCCOCN1c2ccccc2C(=O)NS1(=O)=O |  | >50 µg/mL
CCCCCCCC(Sc1cccc[n+]1[O-])c1cc(C)c(C)c(C)c1 |  | 5 µg/mL
Cc1cn2c(=O)c3ncn(COCCO)c3nc2[nH]1 |  | >90 µg/mL
CCCCCCc1cc2cn(C3CCCO3)c(=O)nc2o1 |  | >200 µM
CCCCCCOc1ccc(-c2cc3cn([C@H]4C[C@H](O)[C@@H](CO)O4)c(=O)nc3o2)cc1 |  | >200 µM
CCCCCCCCc1cc2cnc(OCCC(C)C)nc2o1 |  | 117 µM
COc1ccc(C=NNC(=O)COc2cccc3ccccc23)cc1OC |  | 52.6 µg/mL
CCCCCCc1cc2cn(COCCO)c(=O)nc2[nH]1 |  | >200 µM
CCCCCCCCCCc1cc2cnc(OC3CCCC3)nc2o1 |  | >200 µM
O=c1[nH]c(=O)n([C@H]2C[C@H](O)[C@@H](CO)O2)cc1/C=C/Br |  | >400 µM
CCCCCCCCc1cc2cn([C@H]3C[C@H](O)[C@@H](CO)O3)c(=O)nc2o1 |  | ≥50 µM
C=C[C@H](O)C1=C[C@@H](n2cnc3c(N)ncnc32)[C@H](O)[C@@H]1O |  | >50 µg/mL
CCCCCCCOc1ccc(-c2cc3cn([C@H]4C[C@H](O)[C@@H](CO)O4)c(=O)nc3o2)cc1 |  | >200 µM
O=c1[nH]c(=O)n([C@@H]2O[C@H](CO)[C@@H](O)[C@@H]2O)cc1/C=C/Br |  | 1023 µM
Cc1ccc(CS(=O)(=O)c2cccc[n+]2[O-])c(C)c1 |  | 16 µg/mL
Nc1ncnc2c1nnn2[C@@H]1C=C(CO)[C@@H](O)[C@H]1O |  | >50 µg/mL

Repeating the final 9 entries:

smiles,read by,result
CCCCCCc1cc2cn(COCCO)c(=O)nc2[nH]1,,>200 µM
CCCCCCCCCCc1cc2cnc(OC3CCCC3)nc2o1,,>200 µM
O=c1[nH]c(=O)n([C@H]2C[C@H](O)[C@@H](CO)O2)cc1/C=C/Br,,>400 µM
CCCCCCCCc1cc2cn([C@H]3C[C@H](O)[C@@H](CO)O3)c(=O)nc2o1,,≥50 µM
C=C[C@H](O)C1=C[C@@H](n2cnc3c(N)ncnc32)[C@H](O)[C@@H]1O,,>50 µg/mL
CCCCCCCOc1ccc(-c2cc3cn([C@H]4C[C@H](O)[C@@H](CO)O4)c(=O)nc3o2)cc1,,>200 µM
O=c1[nH]c(=O)n([C@@H]2O[C@H](CO)[C@@H](O)[C@@H]2O)cc1/C=C/Br,,1023 µM
Cc1ccc(CS(=O)(=O)c2cccc[n+]2[O-])c(C)c1,,16 µg/mL
Nc1ncnc2c1nnn2[C@@H]1C=C(CO)[C@@H](O)[C@H]1O,,>50 µg/mL